According to ChEMBL document CHEMBL3217662 (Medchemcomm, 2011):

What follows are compounds tested against Protease (Human immunodeficiency virus 1, UniProt Q9YQ12) (assay: Inhibition of HIV1 protease using fluorogenic hexapeptide substrate (2-aminobenzoyl)Thr-Ile-Nle-(p-nitro)Phe-Gln-Arg by fluorimeter).

Row | Ki | SMILES
1 | 0.221 nM | CC(C)(C)NC(=O)[C@@H]1C[C@@H]2CCCC[C@@H]2CN1C[C@@H](O)[C@H](Cc1ccccc1)NC(=O)[C@H](CC(N)=O)NC(=O)c1ccc2ccccc2n1
2 | 0.571 nM | CC(C)(C)NC(=O)[C@@H]1CN(Cc2cccnc2)CCN1C[C@@H](O)C[C@@H](Cc1ccccc1)C(=O)N[C@H]1c2ccccc2C[C@H]1O
3 | 0.0371 nM | Cc1cccc(C)c1OCC(=O)N[C@@H](Cc1ccccc1)[C@@H](O)C[C@H](Cc1ccccc1)NC(=O)[C@H](C(C)C)N1CCCNC1=O [LOPINAVIR]
